The target of assay [1] is hemagglutinin (HA) of H5N8 A/Duck/Korea/Gochang1/2014 (HPAI) (Influenza A virus (A/breeder duck/Korea/Gochang1/2014(H5N8)), UniProt W8P1W5). The assay is described as follows: hemagglutination inhibition assay, whole virus with chicken red blood cells. Particulars: 4 HAU virus, 1% chicken RBC, room temperature; lowest concentration with complete inhibition; competes with receptor sialic acid.

In assay [2] the target is hemagglutinin (HA) of H1N1 A/Swine/Iowa/15/30 (Influenza A virus (A/swine/Iowa/15/1930(H1N1)), UniProt Q9WCD9). The description is as above. Particulars: 4 HAU virus, 1% chicken RBC, room temperature; lowest concentration with complete inhibition; competes with receptor sialic acid.

≈ marks a conversion by molar mass, not a printed value.

In assay [1], `CC(=O)N[C@H]1[C@H]([C@H](O)[C@H](O)CO)O[C@@](OC[C@H]2O[C@@H](O[C@H]3[C@H](O)[C@@H](O)C(O)O[C@@H]3CO)[C@H](O)[C@@H](O)[C@H]2O)(C(=O)O)C[C@@H]1O` (stereo partly drawn) [6′-sialyllactose] registered an MIC greater than 200 mM.
As to `CC(=O)N[C@H]1[C@H]([C@H](O)[C@H](O)CO)O[C@@](O[C@H]2[C@@H](O)[C@@H](CO)O[C@@H](O[C@H]3[C@H](O)[C@@H](O)C(O)O[C@@H]3CO)[C@@H]2O)(C(=O)O)C[C@@H]1O` (stereo partly drawn), the MIC was 31.25 mM (≈ 19.8 mg/mL) in assay [2] and 12.5 mM (≈ 7.92 mg/mL) in assay [1].

The values above are taken from paper PMC5803236 (Scientific Reports, 2018).
